Measured values from several laboratories, pooled; numbers as filed in NIAID ChemDB.

All rows: host cell toxicity; cell line: MT-4; method: MTT; measure: CC50

Conditions beyond the fields shown may differ between rows. CCn: concentration that lowers growth or viability of the cells by n%.

| smiles | result |
|---|---|
| CCc1c(C(=O)c2cc(F)cc(F)c2)n(Cc2ccccn2)c(=O)[nH]c1=O | 93.2 µg/mL |
| Cc1cn([C@H]2C[C@H](N=[N+]=[N-])[C@@H](CO)O2)c(=O)[nH]c1=O | 210 µM |
| Cc1cc(C#N)cc(C)c1Oc1nc(Nc2ccc(C#N)cc2)ncc1C#CC(=O)NCCN1CCOCC1 | >240 µM |
| COc1ccc(N(C)C(=O)[C@H](Cc2cc(F)cc(F)c2)NC(=O)CN2CCN(S(=O)(=O)c3cccc(NC(C)=O)c3)CC2=O)cc1 | 91.58 µM |
| Nc1ncnc2c1ncn2[C@H]1CC[C@](CCP(=O)(O)O)(C(F)(F)F)C1 | 95 µM |
| Cc1cccc(CS(=O)(=O)c2cccc[n+]2[O-])c1 | 30 µg/mL |
| CCOC(=O)[C@H](C)NC(O)(Oc1ccccc1)Oc1nc(N(C)C)nc(C(C)c2c(F)cccc2F)c1C | 40 µM |
| C=Cn1cc(C(=O)O)c(=O)c2ccc(N3CCN(c4ccccn4)CC3)cc21 | 1.48 µM |
| O=c1ccn([C@H]2C=C[C@@H](CO)O2)c(=O)n1CCCCN1CCN(CCNC(=S)Nc2ccc(Br)cn2)CC1 | >100 µM |
| Nc1cc2c(=O)c(C(=O)O)cn(N)c2cc1N1CCN(c2ccccn2)CC1 | 36.46 µM |
| CCOC(=O)c1c([C@@H]2C[C@H]2c2ccccc2)n(C)c2ccc(O)cc12 | >298 µM |
| Cc1nc2c(c(C)c(C)n2Cc2cocn2)c(-c2ccc(Cl)cc2)c1[C@H](OC(C)(C)C)C(=O)O | 64.73 µM |
| Cc1ccc(S(=O)(=O)N2C(=O)CSC2c2ccccc2)cc1 | >125 µM |
| Nn1cc(C(=O)O)c(=O)c2ccc(N3CCN(c4ccccn4)CC3)cc21 | >342 µM |
| Cc1ccc(S(=O)(=O)N2C(=O)CSC2c2ccccc2[N+](=O)[O-])cc1 | >125 µM |
| CCc1c(C(=O)c2ccccc2)n(Cc2ccncc2)c(=O)[nH]c1=O | >100 µg/mL |
| C=Cn1cc(C(=O)O)c(=O)c2ccc(N3CCN(c4nc5ccccc5s4)CC3)cc21 | 0.05 µM |
| CCn1c(C)c(C)c2c(-c3ccc(Cl)cc3)c(C(OC(C)(C)C)C(=O)O)c(C)nc21 | >233 µM |
| COc1ccc(N(C)C(=O)[C@H](Cc2cc(F)cc(F)c2)NC(=O)CN2CCN(S(=O)(=O)c3ccc([N+](=O)[O-])cc3)CC2=O)cc1 | 14.85 µM |
| C=Cn1cc(C(=O)O)c(=O)c2cc(N)c(N3CCN(c4ccccn4)CC3)cc21 | 0.3 µM |
| Cc1cc(C)cc(C(=O)c2c(C(C)C)c(=O)[nH]c(=O)n2Cc2ccnc(C#N)c2)c1 | 9.15 µg/mL |
| N#Cc1cc(Cl)cc(Oc2c(C(F)(F)F)ccn(CC(=O)Nc3ccn[nH]3)c2=O)c1 | ≥41.9 µM |
| N#Cc1ccc(Nc2nc(Oc3c(Cl)cc(Cl)cc3Cl)ncc2N)cc1 | 26 µM |
| COCCOC(=O)c1cccn1S(=O)(=O)c1cc(Cl)ccc1[N+](=O)[O-] | 12 µM |
| CSCC[C@H](C)OC(=O)[C@@H](NC(=O)CSC(C)(C)C)c1ccccc1-c1c[nH]c2ccccc12 | 16 µM |
| Cn1cc(C(=O)O)c(=O)c2ccc(N3CCN(c4nc5ccccc5s4)CC3)nc21 | 24.7 µg/mL |
| CCn1cc(C(=O)O)c(=O)c2cc(F)c(N3CCN(CN4C(=O)/C(=N\c5ncc(Cc6cc(OC)c(OC)c(OC)c6)c(N)n5)c5cc(F)ccc54)CC3)cc21 | 160.2 µg/mL |
| N#Cc1cc(Cl)cc(Oc2c(C(F)(F)F)ccn(CC(=O)Nc3cn[nH]c3)c2=O)c1 | 46.1 µM |
| Cc1cc(C)c(Oc2ncc(N)c(Nc3ccc(C#N)cc3)n2)c(C)c1 | 10 µM |
| Cc1ccc(C)c(CSc2c(Cl)ccc[n+]2[O-])c1 | 13 µg/mL |
| O=c1ccn([C@H]2C=C[C@@H](CO)O2)c(=O)n1CCOCCN1CCN(CCNC(=S)Nc2ccc(Br)cn2)CC1 | >100 µM |
| COc1cc(Cc2cnc(/N=C3\C(=O)N(CN4CCN(c5c(F)cc6c(=O)c(C(=O)O)cn(C7CC7)c6c5OC)CC4C)c4ccc(F)cc43)nc2N)cc(OC)c1OC | 91.6 µg/mL |
| CCCCCCCCCCCCCCCCCCOC1C(OCc2ccccc2)C2COC(O2)C1OCc1ccccc1 | >163 µg/mL |
| Nc1nc(N)c2ncn([C@H]3CC[C@](/C=C/P(=O)(O)O)(C(F)(F)F)C3)c2n1 | >100 µM |
| CC(C)OC(=O)OCn1nc(Cn2ccc(C(F)(F)F)c(Oc3cc(Cl)cc(C#N)c3)c2=O)n(C)c1=O | >231 µM |
| Cc1cc(Br)cc(C)c1Oc1ncc(N)c(Nc2ccc(C#N)cc2)n1 | 31 µM |
| CCN(CC)C(=O)c1cccn1S(=O)(=O)c1cc(Cl)ccc1N | 146 µM |
| COc1cc(Cc2cnc(/N=C3\C(=O)N(CN4CCN(Cc5ccccc5)CC4)c4ccc(F)cc43)nc2N)cc(OC)c1OC | 139.3 µg/mL |
| Cc1cc(Cn2c(C(=O)c3cc(Cl)cc(Cl)c3)c(C(C)C)c(=O)[nH]c2=O)cc(C)n1 | 9.46 µg/mL |
| COCCNC(=O)C#Cc1cnc(Nc2ccc(C#N)cc2)nc1Oc1c(C)cc(C#N)cc1C | 13.6 µM |
| N#Cc1cc(Cl)cc(Oc2c(C(F)(F)F)ccn(CC(=O)Nc3ccc([N+](=O)[O-])cc3)c2=O)c1 | >254 µM |
| Cc1cn([C@H]2C=C[C@@H](CO)O2)c(=O)n(CCCCCCN2CCN(CCNC(=S)Nc3ccc(Br)cn3)CC2)c1=O | >100 µM |
| Cc1ccc(S(=O)(=O)N2C(=O)CSC2c2ccc([N+](=O)[O-])cc2)cc1 | >125 µM |
| N#Cc1ccc(Nc2nc(Oc3c(Cl)cccc3Cl)ncc2NC(=O)C(F)(F)F)cc1 | 190 µM |
| Nn1cc(C(=O)O)c(=O)c2cc(O)c(N3CCN(c4cccc(C(F)(F)F)c4)CC3)cc21 | 20.96 µM |
| COc1ccc(N(C)C(=O)[C@H](Cc2cc(F)cc(F)c2)NC(=O)CN2CCN(S(=O)(=O)c3cccc([N+](=O)[O-])c3)CC2=O)cc1 | 83.87 µM |
| Oc1ccc(-c2nnc3sc(-c4cccs4)nn23)c(Cl)c1Cl | 92.7 µg/mL |
| Cc1ccc(S(=O)(=O)N2C(=O)CSC2c2cccc([N+](=O)[O-])c2)cc1 | >125 µM |
| CSCC[C@H](C)OC(=O)[C@@H](N)c1ccccc1-c1c[nH]c2ccccc12 | 33 µM |
| CCOP(=O)(/C=C/[C@]1(C(F)(F)F)CC[C@H](n2cnc3c(N)ncnc32)C1)OCC | 98 µM |
| CCCCOC(=O)c1cccn1S(=O)(=O)c1cc(Cl)ccc1[N+](=O)[O-] | 22 µM |
| COc1cc(Cc2cnc(/N=C3\C(=O)N(CN4CCN(c5ccccc5)CC4)c4ccc(F)cc43)nc2N)cc(OC)c1OC | 84.7 µg/mL |
| O=C1Nc2ccc(Cl)cc2[C@@](C#CC2CC2)(C(F)(F)F)O1 | >6.34 µM |
| Cc1ccc(C)c(C(C)S(=O)(=O)c2ccc(C)c[n+]2[O-])c1 | 26 µg/mL |
| Cc1cn(CCO[C@H]2C=C[C@@H](CO)O2)c(=O)[nH]c1=O | 29 µg/mL |
| Cc1cn([C@H]2C=C[C@@H](CO)O2)c(=O)n(CCCN2CCN(CCNC(=S)Nc3ccc(Br)cn3)CC2)c1=O | >100 µM |
| N#Cc1cc(Cl)cc(Oc2c(C(F)(F)F)ccn(CC(=O)Nc3ncn[nH]3)c2=O)c1 | >285 µM |
| Cc1cc(C)c(Oc2ncc(NC(=O)C(F)(F)F)c(Nc3ccc(C#N)cc3)n2)c(C)c1 | 242 µM |
| Cc1nc2sc3c(c2c(Sc2ccccc2)c1C(OC(C)(C)C)C(=O)O)CCCC3 | 105 µM |
| Cc1cc(C)cc(C(=O)c2c(C(C)C)c(=O)[nH]c(=O)n2Cc2cc(C)nc(C)c2)c1 | 9.9 µg/mL |
| Cc1cn([C@H]2C=C[C@@H](CO)O2)c(=O)n(CCCCN2CCN(CCNC(=S)Nc3ccc(Br)cn3)CC2)c1=O | >100 µM |
| N#Cc1ccc(Nc2nc(Oc3c(Br)cc(Br)cc3Br)ncc2[N+](=O)[O-])cc1 | 20 µM |
| COc1cc(Cc2cnc(/N=C3\C(=O)N(CN4CCC(C)CC4)c4ccc(F)cc43)nc2N)cc(OC)c1OC | 69.6 µg/mL |
| Nc1cc2c(=O)c(C(=O)O)cn(N)c2cc1N1CCN(c2nc3ccccc3s2)CC1 | 0.17 µM |
| CCc1c(Oc2cc(C)cc(C)c2)n(Cc2ccncc2)c(=O)[nH]c1=O | >100 µg/mL |
| CCCCn1c(C)c(C)c2c(-c3ccc(Cl)cc3)c(C(OC(C)(C)C)C(=O)O)c(C)nc21 | >219 µM |
| O=C(OC1CCCCC1)c1cccn1S(=O)(=O)c1cc(Cl)ccc1[N+](=O)[O-] | 160 µM |
| NNc1nc2c(Cl)cccc2s1 | >117 µg/mL |
| Cc1cn([C@H]2C=C[C@@H](CO)O2)c(=O)n(CCOCCN2CCN(CCNC(=S)Nc3ccc(Br)cn3)CC2)c1=O | >100 µM |
| Oc1cc(/C=C/c2cc(O)c(O)c(O)c2)cc(O)c1O | 11.9 µM |
| N#Cc1ccc(Nc2nc(Oc3c(Br)cc(Br)cc3Br)ncc2N)cc1 | 37 µM |
| CCc1c(C(=O)c2cc(C)cc(CF)c2)n(Cc2ccncc2)c(=O)[nH]c1=O | 52.1 µg/mL |
| CSCC[C@H](C)OC(=O)[C@@H](NC(=O)Cc1c[nH]c2ccccc12)c1ccccc1-c1c[nH]c2ccccc12 | 12 µM |
| Cc1ccc(S(=O)(=O)N2C(=O)CSC2c2cccc(Br)c2)cc1 | >125 µM |
| CC(C)=Nn1cc(C(=O)O)c(=O)c2cc(N)c(N3CCN(c4ccccn4)CC3)cc21 | 1.11 µM |
| COc1ccc(N(C)C(=O)[C@H](Cc2cc(F)cc(F)c2)NC(=O)CN2CCN(S(=O)(=O)c3cccc(Cl)c3)CC2=O)cc1 | 9.05 µM |
| CCOC(=O)c1c(C)n([C@H]2C[C@@H]2c2ccccc2)c2ccc(OC(C)=O)c(O)c12 | 50 µM |
| COC(=O)C1CCC(NC(=O)C#Cc2cnc(Nc3ccc(C#N)cc3)nc2Oc2c(C)cc(C#N)cc2C)CC1 | 11.5 µM |
| COc1ccc(N(C)C(=O)[C@H](Cc2cc(F)cc(F)c2)NC(=O)CN2CCN(S(=O)(=O)c3cccc(C)c3)CC2=O)cc1 | >204 µM |
| O=C1CSc2nnc(-c3ccc(Cl)c(Cl)c3)n2N1 | 35.23 µg/mL |
| Cc1ccnc2c1NC(=O)c1cccnc1N2C1CC1 | >4 µM |
| Nc1cc(O)ccc1-c1nnc2sc(-c3cc4ccccc4oc3=O)nn12 | 108.3 µg/mL |
| Cc1cn([C@H]2C[C@H](N=[N+]=[N-])[C@@H](COP(=O)(O)C(N)=O)O2)c(=O)[nH]c1=O | >300 µM |
| Oc1ccc(-c2nnc3sc(-c4ccc[nH]4)nn23)c(Cl)c1Cl | 68.48 µg/mL |
| Cc1cn([C@H]2C[C@H](N=[N+]=[N-])[C@@H](CO)O2)c(=O)[nH]c1=O | >25 µg/mL |
| Nc1cc(O)ccc1-c1nn2c(-c3ccc(O)c(Cl)c3Cl)nnc2s1 | 19.61 µg/mL |
| N#Cc1cc(Cl)cc(Oc2c(C(F)(F)F)ccn(CC(=O)Nc3cnccn3)c2=O)c1 | ≥183 µM |
| Cc1cn([C@H]2C[C@H](N=[N+]=[N-])[C@@H](COP(=O)(O)CI)O2)c(=O)[nH]c1=O | >500 µM |
| Cc1cc(C=O)cc(C)c1Oc1ncc(N)c(Nc2ccc(C#N)cc2)n1 | ≥34 µM |
| COc1ccc(N(C)C(=O)[C@H](Cc2cc(F)cc(F)c2)NC(=O)CN2CCN(S(=O)(=O)c3ccccc3[N+](=O)[O-])CC2=O)cc1 | 94.87 µM |

For reference, 10 entries again:

smiles,result
N#Cc1cc(Cl)cc(Oc2c(C(F)(F)F)ccn(CC(=O)Nc3ccn[nH]3)c2=O)c1,≥41.9 µM
Cc1cc(Br)cc(C)c1Oc1ncc(N)c(Nc2ccc(C#N)cc2)n1,31 µM
Cc1nc2c(c(C)c(C)n2Cc2cocn2)c(-c2ccc(Cl)cc2)c1[C@H](OC(C)(C)C)C(=O)O,64.73 µM
Nc1ncnc2c1ncn2[C@H]1CC[C@](CCP(=O)(O)O)(C(F)(F)F)C1,95 µM
COCCOC(=O)c1cccn1S(=O)(=O)c1cc(Cl)ccc1[N+](=O)[O-],12 µM
Cc1ccc(C)c(CSc2c(Cl)ccc[n+]2[O-])c1,13 µg/mL
N#Cc1cc(Cl)cc(Oc2c(C(F)(F)F)ccn(CC(=O)Nc3cn[nH]c3)c2=O)c1,46.1 µM
CCc1c(C(=O)c2ccccc2)n(Cc2ccncc2)c(=O)[nH]c1=O,>100 µg/mL
CCCCn1c(C)c(C)c2c(-c3ccc(Cl)cc3)c(C(OC(C)(C)C)C(=O)O)c(C)nc21,>219 µM
Cc1cn([C@H]2C[C@H](N=[N+]=[N-])[C@@H](CO)O2)c(=O)[nH]c1=O,210 µM